Results of unrelated studies side by side (data: NIAID ChemDB).

Common to all: tests in culture; species: Hepatitis C virus

Fold resistance: result on the changed form divided by that on wild type.

| structure | cells | setting | method | changes | strain | dose | measure | result |
|---|---|---|---|---|---|---|---|---|
| NC(=S)Nc1ccc2c(c1)C(=O)c1cc(Br)ccc1-2 | Ava5-EG(delta4AB)SEAP | - | reporter gene / fluorescence | - | - | - | EC50 | 0.001–1 µM |
| CCn1cc(CN2CCC(C(=O)Nc3cccc(-c4cccc(Cl)c4)c3)CC2)cn1 | Huh7 | - | PCR | - | JFH-1 | 5 µM | inhibition | ≥40% |
| CC1(C)CC[C@@]2(C(=O)NCc3cn(CCO)nn3)C(C1)C1=CCC3[C@@]4(C)CC[C@H](O)C(C)(C)C4CC[C@@]3(C)[C@]1(C)C[C@H]2O | Huh7 | - | luciferase / entry | - | - | 1 µM | inhibition | 34.9% |
| C=C(C)[C@@H]1CC[C@]2(C(=O)O)CC[C@]3(C)[C@H](CC[C@@H]4[C@@]5(C)CC[C@H](O)C(C)(C)[C@@H]5CC[C@]43C)[C@@H]12 | Huh7 | - | luciferase / entry | - | - | 1 µM | inhibition | 4.2% |
| NC(=S)Nc1cccc(OCCCCCOc2cccc3ccccc23)c1 | Ava5-EG(delta4AB)SEAP | - | reporter gene / fluorescence | - | - | - | EC50 | 0.001–1 µM |
| COC(=O)N[C@H](C(=O)N1CCCC1c1ncc(-c2ccc(-c3ccc(-c4cnc([C@@H]5CC(C)CN5C(=O)[C@@H](NC(=O)CO)C(C)C)[nH]4)cc3)cc2)[nH]1)C(C)C | Lunet | - | luciferase | Q30R | 1a | - | EC50 | 0.000794 µM |
| CN1CCN(c2ccc(OCCCCCOc3cccc(NC(N)=S)c3)cc2)CC1 | Ava5-EG(delta4AB)SEAP | - | reporter gene / fluorescence | - | - | - | EC50 | 0.001–1 µM |
| O=C(N[C@@H](C(=O)N1CCC[C@H]1c1ncc(-c2ccc(-c3ccc(-c4cnc([C@@H]5CCCN5C(=O)[C@H](NC(=O)C5CC5)c5ccccc5)s4)cc3)cc2)s1)c1ccccc1)C1CC1 | Huh7.5 | - | luciferase / reporter gene | Y93H+V153M+M202L+M265V | genotype 1b | - | fold resistance | 5824 |
| CC1(C)CC[C@@]2(C(=O)NCc3cn(Cc4cccc(Cn5cc(CNC(=O)[C@]67CCC(C)(C)CC6C6=CCC8[C@@]9(C)CC[C@H](O)C(C)(C)C9CC[C@@]8(C)[C@]6(C)C[C@H]7O)nn5)c4)nn3)C(C1)C1=CCC3[C@@]4(C)CC[C@H](O)C(C)(C)C4CC[C@@]3(C)[C@]1(C)C[C@H]2O | Huh7 | - | luciferase / entry | - | - | 1 µM | inhibition | 59.2% |
| NC(=S)Nc1cccc(OCCCCCOc2ccc(-c3cccs3)cc2)c1 | Ava5-EG(delta4AB)SEAP | - | reporter gene / fluorescence | - | - | - | EC50 | 0.001–1 µM |
| C[C@@]1(F)[C@H](O)[C@@H](CO)O[C@H]1n1ccc(N)nc1=O | - | - | replicon / PCR | - | WILD TYPE | - | EC90 | 4.9 µM |
| CC1(C)CC[C@@]2(C(=O)NCc3cn(-c4ccc(-n5cc(CNC(=O)[C@]67CCC(C)(C)CC6C6=CCC8[C@@]9(C)CC[C@H](O)C(C)(C)C9CC[C@@]8(C)[C@]6(C)C[C@H]7O)nn5)cc4)nn3)C(C1)C1=CCC3[C@@]4(C)CC[C@H](O)C(C)(C)C4CC[C@@]3(C)[C@]1(C)C[C@H]2O | Huh7 | - | luciferase / entry | - | - | 5 µM | inhibition | 78.1% |
| CC1CCC(C(=O)N(c2cc(C#CC(C)(C)C)sc2C(=O)O)C2CCC(O)CC2)CC1 | Huh7 | - | luciferase | L419S | Con1 (gt 1b) | - | fold resistance | 346.9 |
| COc1c(-c2ccc3cc(NS(C)(=O)=O)ccc3c2)cc(-n2ccc(=O)[nH]c2=O)cc1C(C)(C)C | Huh7 | - | luciferase | S556G | genotype 1b Con1 | - | EC50 | 0.0065 µM |
| CC1(C)CC(=O)C2=C(C1)Nc1c(O)cccc1N(C(=O)CCC(=O)N1CCNC(=O)C1)C2c1ccc(OCc2ccccc2)cc1Cl | - | - | luciferase / reporter gene / replicon | - | 1b | - | EC50 | 46.96 µM |
| CC1(C)CC[C@@]2(C(=O)NCCCCNC(=O)[C@]34CCC(C)(C)CC3C3=CCC5[C@@]6(C)CC[C@H](O)C(C)(C)C6CC[C@@]5(C)[C@]3(C)C[C@H]4O)C(C1)C1=CCC3[C@@]4(C)CC[C@H](O)C(C)(C)C4CC[C@@]3(C)[C@]1(C)C[C@H]2O | Huh7 | - | luciferase / entry | - | - | 1 µM | inhibition | 46.5% |
| O=C(Nc1cccnc1Oc1ccccc1)C1CCN(Cc2ccccc2)CC1 | Huh7 | - | PCR | - | JFH-1 | 5 µM | inhibition | ≥40% |
| C[C@H]1[C@H](C)CC[C@]2(C(=O)O)CC[C@]3(C)C(=CC[C@@H]4[C@@]5(C)CC[C@H](O)C(C)(C)[C@@H]5CC[C@]43C)[C@H]12 | Huh7 | pseudotyped | luciferase / entry | - | - | 5 µM | inhibition | 3.9% |
| CC1(C)CC(=O)C2=C(C1)Nc1c(O)cccc1N(C(=O)c1ccc(C#N)o1)C2c1ccc(OCc2ccccc2)cc1F | - | - | luciferase / reporter gene / replicon | - | 1b | - | EC50 | 3.36 µM |
| NC(=S)Nc1cccc(OCCCCCOc2cccc(-c3ccccc3)c2)c1 | Ava5-EG(delta4AB)SEAP | - | reporter gene / fluorescence | - | - | - | EC50 | 0.001–1 µM |
| COc1cc(C(c2cc(OC)c3c(c2)OCO3)[C@@H]2COC(=O)[C@@H]2C)cc2c1OCO2 | Huh7.5 | - | luciferase | T1056A T1429I S2204I | Subgenomic replicon S52 | 50 µM | inhibition | 88% |
| S=C(Nc1ccc2c(c1)Cc1cc(Br)ccc1-2)Nc1cccc2ccccc12 | Ava5-EG(delta4AB)SEAP | - | reporter gene / fluorescence | - | - | - | EC50 | 0.001–1 µM |
| Cc1nc(C(=O)N2c3cccc(O)c3NC3=C(C(=O)CC(C)(C)C3)[C@@H]2c2ccc(OCc3ccccc3)cc2F)cs1 | - | - | luciferase / reporter gene / replicon | - | 1b | - | EC50 | 0.35 µM |
| COc1cccc(CN2CCC(C(=O)Nc3cccc(-c4cccc(F)c4)c3)CC2)c1OC | Huh7 | - | PCR | - | JFH-1 | 15 µM | inhibition | ≥40% |
| CC1(C)CC(=O)C2=C(C1)Nc1c(O)cccc1N[C@@H]2c1ccc(OCc2ccccc2)cc1Cl | - | - | luciferase / reporter gene / replicon | - | 1b | - | EC50 | 4.01 µM |
| COc1cc([C@H]2O[C@@H](c3cc(OC)c4c(c3)OCO4)[C@@H](C)[C@@H]2C)cc2c1OCO2 | Huh7.5 | - | - | - | Cell culture J6/JFH-1 | 25 µM | inhibition | 100% |
| COc1ccc(/C=C/CN2CCC(C(=O)Nc3cccc(-c4ccco4)c3)CC2)cc1 | Huh7 | - | PCR | - | JFH-1 | 15 µM | inhibition | <40% |
| CCCn1cc(CNC(=O)[C@]23CCC(C)(C)CC2C2=CCC4[C@@]5(C)CC[C@H](O)C(C)(C)C5CC[C@@]4(C)[C@]2(C)C[C@H]3O)nn1 | Huh7 | - | luciferase / entry | - | - | 5 µM | inhibition | 4.9% |
| CC1(C)CC(=O)C2=C(C1)Nc1c(O)cccc1N(C(=O)c1csc(-c3cccnc3)n1)C2c1ccc(OCc2ccccc2)cc1F | - | - | luciferase / reporter gene / replicon | - | 1b | - | EC50 | 0.81 µM |
| NC(=S)Nc1cccc(OCCCCCNc2cccc3ccccc23)c1 | Ava5-EG(delta4AB)SEAP | - | reporter gene / fluorescence | - | - | - | EC50 | 0.001–1 µM |
| CC1(C)CC[C@@]2(C(=O)NCc3cn(CCCCCCn4cc(CNC(=O)[C@]56CCC(C)(C)CC5C5=CCC7[C@@]8(C)CC[C@H](O)C(C)(C)C8CC[C@@]7(C)[C@]5(C)C[C@H]6O)nn4)nn3)C(C1)C1=CCC3[C@@]4(C)CC[C@H](O)C(C)(C)C4CC[C@@]3(C)[C@]1(C)C[C@H]2O | Huh7 | - | luciferase / entry | - | - | 1 µM | inhibition | 72.7% |

Repeating the first 3 entries:

structure | cells | setting | method | changes | strain | dose | measure | result
NC(=S)Nc1ccc2c(c1)C(=O)c1cc(Br)ccc1-2 | Ava5-EG(delta4AB)SEAP | - | reporter gene / fluorescence | - | - | - | EC50 | 0.001–1 µM
CCn1cc(CN2CCC(C(=O)Nc3cccc(-c4cccc(Cl)c4)c3)CC2)cn1 | Huh7 | - | PCR | - | JFH-1 | 5 µM | inhibition | ≥40%
CC1(C)CC[C@@]2(C(=O)NCc3cn(CCO)nn3)C(C1)C1=CCC3[C@@]4(C)CC[C@H](O)C(C)(C)C4CC[C@@]3(C)[C@]1(C)C[C@H]2O | Huh7 | - | luciferase / entry | - | - | 1 µM | inhibition | 34.9%

Blank or dashed fields: not listed here. a–b is a range or a potency band. Inhibition is in % at the dose shown (toxicity tests: loss of growth or viability). Lines come from different laboratories, so protocols vary. ECn is the concentration giving n% inhibition of infection, replication or growth.